Results deposited as PubChem BioAssay AID624099 (ICCB-Longwood, 2012)

- Aim: 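Host factors E2 relies on to silence an HPV18 LCR reporter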 (primary screen)
- Cell system: human C33A cervical carcinoma cells (HPV-negative) stably expressing BPV1 E2 and an HPV18 LCR luciferase reporter
- Reagent: siRNA pool against human genes, 40 nM
- Duration: 72 h
- Read-out: 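Per-well luciferase luminescence, z-scored on each plate against the plate mean and SD with control wells left out, then averaged across three replicate plates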
- Reading the numbers: mean z-score and z-score: higher = stronger reporter signal, weaker E2 silencing
- Hit rule: 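Hit if mean z-score reaches 2 and two or more of three replicate z-scores also reach 2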
The deposit covers about 21,000 reagents; below is a part drawn at random. In the full data, 497 (2.4%) were called active. 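Higher z means weaker E2 silencing; only reporter increases were scored, and knock-downs that hurt cell survival may mask genuine repressor factors.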 A number with no mark means an inactive call.

| gene | mean z-score | z-score, replicate A | z-score, replicate B | z-score, replicate C |
| --- | --- | --- | --- | --- |
| SPC24 (SPC24 component of NDC80 kinetochore complex) | 0.52 | 0.18 | 1.02 | 0.35 |
| MROCKI | 2.26 (active) | 2.32 | 2.48 | 1.98 |
| RIOK2 (RIO kinase 2) | -0.01 | -0.25 | 0.19 | 0.02 |
| ANGPT2 (angiopoietin 2) | 0.78 | 0.88 | 0.65 | 0.8 |
| TREML2 (triggering receptor expressed on myeloid cells like 2) | -0.69 | -0.24 | -0.8 | -1.03 |
| PNPLA8 (patatin like domain 8, phospholipase A2) | -0.2 | -0.16 | -0.31 | -0.13 |
| FBXL13 (F-box and leucine rich repeat protein 13) | -0.51 | -0.79 | -0.41 | -0.34 |
| GDE1 (glycerophosphodiester phosphodiesterase 1) | 1.66 | 1.72 | 1.93 | 1.33 |
| FBXW8 (F-box and WD repeat domain containing 8) | 0.8 | 0.72 | 0.87 | 0.8 |
| BANF1 (barrier to autointegration nuclear assembly factor 1) | 0.54 | 0.67 | 0.53 | 0.4 |
| PPARD (peroxisome proliferator activated receptor delta) | 0.02 | 0.28 | -0.16 | -0.04 |
| MRPL41 (mitochondrial ribosomal protein L41) | -0.53 | -0.32 | -0.51 | -0.76 |
| PABIR3 (PABIR family member 3) | -1.4 | -1.57 | -1.46 | -1.17 |
| LOC391817 (retired record) | -0.63 | -0.97 | -0.29 | -0.62 |
| UBXN4 (UBX domain protein 4) | -0.75 | -0.91 | -0.62 | -0.7 |
| RFC5 (replication factor C subunit 5) | -0.65 | -0.49 | -0.67 | -0.77 |
| SMOC1 (SPARC related modular calcium binding 1) | 0.78 | 0.95 | 0.8 | 0.59 |
| CACNG7 (calcium voltage-gated channel auxiliary subunit gamma 7) | -1.13 | -1.26 | -1.44 | -0.69 |
| IBA57 (iron-sulfur cluster assembly factor IBA57) | 0.12 | 0.01 | -0.06 | 0.41 |
| NSUN4 (NOP2/Sun RNA methyltransferase 4) | 1.63 | 1.54 | 1.35 | 2.01 |
| IL2RB (interleukin 2 receptor subunit beta) | 0.1 | -0.1 | 0.21 | 0.19 |
| PLA2G7 (phospholipase A2 group VII) | 0.16 | 0.18 | 0.26 | 0.05 |
| LOC343384 (retired record) | -0.85 | -0.15 | -1.45 | -0.94 |

2 consecutive records from above, quoted:
| gene | mean z-score | z-score, replicate A | z-score, replicate B | z-score, replicate C |
| --- | --- | --- | --- | --- |
| CACNG7 (calcium voltage-gated channel auxiliary subunit gamma 7) | -1.13 | -1.26 | -1.44 | -0.69 |
| IBA57 (iron-sulfur cluster assembly factor IBA57) | 0.12 | 0.01 | -0.06 | 0.41 |
